Data on 3 molecules can be found in patent publication US20250277059A1, “ANTIBODY USED TO TREAT CORONAVIRUS INFECTION” (priority 2022, published 2025).

Amino acid sequences for entries named in this document (tags omitted).
UniProt O15393, whole entry R316S/F319L: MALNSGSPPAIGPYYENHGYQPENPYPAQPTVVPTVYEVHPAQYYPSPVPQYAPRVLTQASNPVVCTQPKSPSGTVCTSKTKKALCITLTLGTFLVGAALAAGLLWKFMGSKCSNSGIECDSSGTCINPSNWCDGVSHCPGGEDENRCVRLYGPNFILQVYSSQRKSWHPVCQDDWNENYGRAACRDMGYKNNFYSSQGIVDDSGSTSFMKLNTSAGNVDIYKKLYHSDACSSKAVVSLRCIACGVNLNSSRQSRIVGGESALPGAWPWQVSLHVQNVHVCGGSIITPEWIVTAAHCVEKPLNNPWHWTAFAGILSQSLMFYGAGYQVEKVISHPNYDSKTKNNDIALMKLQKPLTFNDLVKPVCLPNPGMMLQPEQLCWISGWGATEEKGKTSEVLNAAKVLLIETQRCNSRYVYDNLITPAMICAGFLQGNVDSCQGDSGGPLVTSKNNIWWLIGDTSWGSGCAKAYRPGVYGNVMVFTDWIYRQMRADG
UniProt O15393, whole entry K300E/W306R: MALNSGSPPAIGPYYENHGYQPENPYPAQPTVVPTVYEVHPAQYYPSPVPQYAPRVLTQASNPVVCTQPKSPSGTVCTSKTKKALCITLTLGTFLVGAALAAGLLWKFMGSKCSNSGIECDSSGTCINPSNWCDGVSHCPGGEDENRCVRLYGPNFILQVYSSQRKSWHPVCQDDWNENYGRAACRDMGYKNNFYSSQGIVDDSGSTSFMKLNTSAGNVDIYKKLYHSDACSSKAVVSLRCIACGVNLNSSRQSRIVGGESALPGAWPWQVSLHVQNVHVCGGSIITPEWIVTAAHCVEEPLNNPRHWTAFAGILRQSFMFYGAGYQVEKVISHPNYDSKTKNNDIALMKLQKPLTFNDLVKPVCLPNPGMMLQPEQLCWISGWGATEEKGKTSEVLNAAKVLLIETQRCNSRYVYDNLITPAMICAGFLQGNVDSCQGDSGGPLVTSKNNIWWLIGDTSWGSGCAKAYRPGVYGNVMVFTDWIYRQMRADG
UniProt O15393, whole entry W306A: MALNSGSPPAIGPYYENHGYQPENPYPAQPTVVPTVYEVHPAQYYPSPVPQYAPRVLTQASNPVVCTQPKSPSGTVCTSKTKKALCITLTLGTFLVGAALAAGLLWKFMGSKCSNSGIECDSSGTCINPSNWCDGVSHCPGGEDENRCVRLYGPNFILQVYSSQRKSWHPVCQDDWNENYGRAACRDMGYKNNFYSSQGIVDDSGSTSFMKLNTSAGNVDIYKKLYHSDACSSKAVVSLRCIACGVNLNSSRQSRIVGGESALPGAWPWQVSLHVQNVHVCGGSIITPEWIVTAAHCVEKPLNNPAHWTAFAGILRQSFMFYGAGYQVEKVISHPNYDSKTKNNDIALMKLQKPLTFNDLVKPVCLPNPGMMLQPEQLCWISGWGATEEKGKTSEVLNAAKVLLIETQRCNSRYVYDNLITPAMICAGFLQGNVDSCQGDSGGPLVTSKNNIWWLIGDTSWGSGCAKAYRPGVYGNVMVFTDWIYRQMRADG

What all share (experiment): Flow cytometry binding to TMPRSS2 variants in COS7 cells
(In general: In flow cytometry, cells or beads pass a laser one at a time.)

Assay [1] has as its target TMPRSS2 chimera (human/316 to 321 hamster) (Homo sapiens, UniProt O15393, F319L/R316S). Conditions: FIG. 7D.
In assay [2] the target is TMPRSS2 chimera (human/292 to 309 cat) (Homo sapiens, UniProt O15393, K300E/W306R). The settings on record: FIG. 7A.
The target in assay [3] is W306A variant of human TMPRSS2 (Homo sapiens, UniProt O15393, W306A). Conditions: FIG. 7C.

B1: 2020_12: mouse anti-human TMPRSS2 monoclonal antibody, IgG2c κ; VH SEQ ID NO: 25, VL SEQ ID NO: 26 (antibody, V domains shown)
VH: QVQLQQPGAELAKPGASVKLSCKASGYTFTSYWMHWVKQRPGQGLEWIGLIPPNSGSSNYNEKFKSKATLTVDKSSRTAYMQLSSLTSEDSAVYYCARWDYGSSYGYFDVWGTGTTVTVSS
VL: DIVLTQSPASLAVSLGQRATISCRASESVSTSGYSYMHWYQQKPGQPPKLLIYLASNLESGVPVRFSGSGSGTDFTLNIHPVEEEDAATYYCQHSRELPPTFGAGTKLELK
modifications: mouse IgG2c kappa constant regions; 2020_12 VH; 2020_12 VL
As for B1, the “binding properties to TMPRSS2 chimera (human/316 to 321 hamster)” value in assay [1] was “lost binding properties”.

B2: 1864_10: mouse anti-human TMPRSS2 monoclonal antibody, IgG2b κ; VH SEQ ID NO: 17, VL SEQ ID NO: 18 (antibody, V domains shown)
VH: QVQLQQSGPALVKPGASLKISCEASGYTFTYYSINWVKQRPGQGLEWIGWIFPGSGSTYYNEKFKGKATLTIDKSSSTAYMLLSSLTSEDSAVYFCARSDYGSAYGYFDVWGTGTTVTVSS
VL: DIVLTQSPASLAVSLGQRATISCRASKSVSTSGYSYMHWYQQKPGQPPKLLIYLASNLESGVPARFSGSGSGTDFTLNIHPVEEEDAATYYCQHSRDLPLTFGAGTKLELK
modifications: mouse IgG2b kappa constant regions; 1864_10 VH; 1864_10 VL
In the case of B2, the “binding properties to TMPRSS2 chimera (human/316 to 321 hamster)” value in assay [1] is recorded as “lost binding properties”.

B3: 1831_15: mouse anti-human TMPRSS2 monoclonal antibody, IgG2b κ; VH SEQ ID NO: 98, VL SEQ ID NO: 99 (antibody, V domains shown)
VH: QVQLQQPGAELVKPGASVKLSCKASGYSFTTYWMHWVRQRPGQGLEWIGIIHPNSGTTNYNEKFKSKASLTVDKSSSTAYMQLSSLTSEDSAVYYCARLLWDYFDYWGQGTTLTVSS
VL: DIVMSQSPSSLAVSAGEKVTMSCKSSQSLLNSRTRKNFLAWYQQKPGQSPKLLIYWASTRESGVPDRFTGSGSGTDFTLTISSVQAEDLAVYYCKQSYNLYTFGGGTKLEIK
modifications: mouse IgG2b kappa constant regions; 1831_15 VH; 1831_15 VL
For the molecule B3, in assay [2], the “binding properties to TMPRSS2 chimera (human/292 to 309 cat)” value is “lost binding properties”. Moreover, the “binding properties to W306A variant of human TMPRSS2” value in assay [3] is “lost binding properties”.
